Measured values from several laboratories, pooled; numbers as filed in NIAID ChemDB.

All rows: whole-cell or culture tests; species: Mycobacterium tuberculosis

A number after MIC or MFC names an inhibition level or a share of isolates. MIC bound: limit read from a one-dose screen. Inhibition is in % at the dose shown (toxicity tests: loss of growth or viability). Fold resistance has wild type as its base. Blank or dashed fields: not listed here. Lines come from different laboratories, so protocols vary. ECn is the concentration giving n% inhibition of infection, replication or growth.

smiles	strain	read by	tested at	cell line	mutations	measure	result
CC[C@H]1OC(=O)[C@H](C)[C@@H](O[C@H]2C[C@@](C)(OC)[C@@H](O)[C@H](C)O2)[C@H](C)[C@@H](O[C@@H]2O[C@H](C)C[C@H](N(C)C)[C@H]2O)[C@](C)(O)C[C@@H](C)C(=O)[C@H](C)[C@@H](O)[C@]1(C)O	ATCC 35827	-	-	-	-	MBC	>8 µg/mL
O=C(N/N=C/C=C/c1ccccc1)c1ccco1	H37Rv	BACTEC	12.5 µg/mL	-	-	inhibition	13%
NC[C@H]1O[C@H](O[C@H]2[C@H](O)[C@@H](O[C@H]3O[C@H](CO)[C@@H](O)[C@H](N)[C@H]3O)[C@H](N)C[C@@H]2N)[C@H](N)C[C@@H]1O	H37Ra	-	-	-	-	Mean MIC	10 µg/mL
CN[C@@H]1[C@H](O[C@H]2[C@H](O[C@H]3[C@H](O)[C@@H](O)[C@H](N=C(N)N)[C@@H](O)[C@@H]3N=C(N)N)O[C@@H](C)[C@]2(O)C=O)O[C@@H](CO)[C@H](O)[C@H]1O	Isolate 2	-	-	-	-	MIC	8 µg/mL
O=C(O)c1cnccn1	M6669	-	-	-	-	MIC	480 µg/mL
CO[C@H]1/C=C/O[C@@]2(C)Oc3c(C)c(O)c4c(O)c(c(/C=N/N5CCN(C6CCCC6)CC5)c(O)c4c3C2=O)NC(=O)/C(C)=C\C=C\[C@H](C)[C@H](O)[C@@H](C)[C@@H](O)[C@@H](C)[C@H](OC(C)=O)[C@@H]1C	L215	-	-	-	-	MIC	0.05 µg/mL
CC[C@H]1OC(=O)[C@H](C)[C@@H](O[C@H]2C[C@@](C)(OC)[C@@H](O)[C@H](C)O2)[C@H](C)[C@@H](O[C@@H]2O[C@H](C)C[C@H](N(C)C)[C@H]2O)[C@](C)(OC)C[C@@H](C)C(=O)[C@H](C)[C@@H](O)[C@]1(C)O	H37Rv	-	-	-	-	MBC	>8 µg/mL
NNC(=O)c1ccncc1	Isolate L	-	-	-	-	MIC	>0.2 µg/mL
CC(NNC(=O)c1ccncc1)c1ccc(F)cc1	H37Rv (isoniazid-resistant)	-	-	-	-	MIC	>31.25 µg/mL
NC(=O)c1cnccn1	TB213	-	-	-	-	MIC	<25 µg/mL
CC[C@H]1OC(=O)[C@H](C)[C@@H](O[C@H]2C[C@@](C)(OC)[C@@H](O)[C@H](C)O2)[C@H](C)[C@@H](O[C@@H]2O[C@H](C)C[C@H](N(C)C)[C@H]2O)[C@](C)(OC)C[C@@H](C)C(=O)[C@H](C)[C@@H](O)[C@]1(C)O	23 strains (rifampin- isoniazid-susceptible)	-	-	-	-	MIC50	25 µg/mL
NNC(=O)c1ccncc1	CSU15	-	-	-	-	MIC	4 µg/mL
CC(C)=CCC1C(=O)C(CC=C(C)C)(CC=C(C)C)C(O)C(C(=O)C(C)C)C1O	Isolate M	-	-	-	-	MIC	35.5 µg/mL
CCC1CN2CCc3cc(OC)c(OC)cc3C2CC1=O	H37Rv	BACTEC	-	-	-	MIC bound	>12.5 µg/mL
CC(=O)/C(N=Nc1ccc(C(=O)N/N=C/c2ccc(O)cc2)cc1)=C(\C)O	H37Rv	-	12.5 µg/mL	-	-	inhibition	52%
CCOC(=O)c1c(NC(=O)C2C=C(C(F)(F)F)C=C2C(F)(F)F)sc2c1CCN(C(=O)OC(C)(C)C)C2	H37Rv	resazurin	-	-	-	MIC	>100 µg/mL
Cc1cc(C)c2c(c1)NP(=O)(c1ccccc1)N2	H37Rv	resazurin	6.25 µg/mL	-	-	inhibition	21%
c1cc2c(s1)CCOC21CCN(Cc2ccc3c(c2)OCCO3)CC1	H37Rv	fluorescence	-	-	MmpL3: Ala249Pro	fold resistance	1.1
CC(=O)c1cc(C(C)=O)c(CC(=O)C(=O)Nc2ccc(Cl)cc2Cl)nc1CC(=O)C(=O)Nc1ccc(Cl)cc1Cl	H37Rv	BACTEC	12.5 µg/mL	-	-	inhibition	-2%
CC1CN(c2c(F)cc3c(=O)c(C(=O)O)cn(C4CC4)c3c2F)CCN1	CSU15	-	-	-	-	MIC	≤0.125 µg/mL
CC[C@H]1OC(=O)[C@H](C)[C@@H](O[C@H]2C[C@@](C)(OC)[C@@H](O)[C@H](C)O2)[C@H](C)[C@@H](O[C@@H]2O[C@H](C)C[C@H](N(C)C)[C@H]2O)[C@](C)(O)C[C@@H](C)CN(C)[C@H](C)[C@@H](O)[C@]1(C)O	DRUG-SUS	-	-	-	-	MIC90	>8 µg/mL
CCN(CC)Cc1cc(Nc2nc(/C=C/c3ccc(Cl)cc3)nc(Cl)c2-c2ccc(Cl)cc2)ccc1O	H37Rv	resazurin	-	VERO	-	MIC	3.13 µg/mL
CC1CN(c2cc3c(cc2F)c(=O)c(C(=O)O)cn3-c2ccc(F)cc2F)CCN1	ATCC 35826	-	-	-	-	MIC	0.5 µg/mL
N#Cc1c(NC(=O)c2c(F)c(F)c(F)c(F)c2F)sc2c1CCOC2	-	low oxygen	-	-	-	MIC	180 µM
O=C(CNC(=O)Nc1ccc(Cl)c(Cl)c1)N/N=C/c1c(O)ccc2ccccc12	H37Rv	BACTEC	12.5 µg/mL	-	-	inhibition	-1%
NNC(=O)c1ccncc1	Isolate 8	-	-	-	-	MIC	2 µg/mL
CCN1CCc2c(sc(NC(=O)c3c(F)c(F)c(F)c(F)c3F)c2C(=O)NC)C1	H37Rv	turbidity	-	-	katG Y155 truncation mutant	EC50	1.6 µM
NC(=O)c1cnccn1	Isolate J	-	-	-	-	MIC	>100 µg/mL
C/C(=N\NC(=O)c1ccncc1)c1ccccc1F	H37Rv (thiacetazone-resistant)	-	-	-	-	MIC	>31.25 µg/mL
O=S1(=O)OC(c2ccc(O)cc2)(c2ccc(O)cc2)c2ccccc21	H37Rv	BACTEC	12.5 µg/mL	-	-	inhibition	7%
CO[C@H]1/C=C/O[C@@]2(C)Oc3c(C)c(O)c4c(O)c(c(/C=N/N5CCN(C)CC5)c(O)c4c3C2=O)NC(=O)/C(C)=C\C=C\[C@H](C)[C@H](O)[C@@H](C)[C@@H](O)[C@@H](C)[C@H](OC(C)=O)[C@@H]1C	Isolate 12	-	-	-	-	MIC	<0.03 µg/mL
CCOC(=O)c1c(N)sc2c1CCCC2	H37Rv	resazurin	-	-	-	MIC	>200 µg/mL
O=C1CSc2nc3ccc(Cl)cc3c(=O)n21	H37Rv	BACTEC	12.5 µg/mL	-	-	inhibition	-6%
COc1cccc2c1cc1c3c(cc4c(c32)OCO4)C(=O)N1	SIN452	resazurin	-	-	-	MIC	12.5 µg/mL
Nc1ccc2c(c1)[nH]c(=O)c1cc(Cl)c(Cl)cc12	H37Rv	resazurin	6.25 µg/mL	-	-	inhibition	73%
CCNC(=O)c1c(NC(=O)c2c(F)c(F)c(F)c(F)c2F)sc2c1CCN(CC)C2	H37Rv	turbidity	-	-	gyrA mutant (D94N)	EC50	4.4 µM
O=C(NNCc1ccccc1F)c1ccncc1	Erdman	-	-	-	-	MIC	0.78 µg/mL
Cc1cc2c(cc1C)[n+]([O-])c(-c1nc3ccccc3s1)c(N)[n+]2[O-]	CS-R	-	-	-	-	MIC	12.5 µg/mL
NNC(=O)c1ccncc1	H37Rv	-	-	-	-	Median MIC	0.025 µg/mL
O=c1c2ccccc2oc2c(Cl)cc(Cl)cc12	H37Rv	BACTEC	12.5 µg/mL	-	-	inhibition	0%
CC1COc2c(N3CCN(C)CC3)c(F)cc3c(=O)c(C(=O)O)cn1c23	44 isolates (resistant)	-	-	-	-	MIC90	2 µg/mL
Nc1ccc(C(=O)N/N=C/c2ccccc2)cc1	H37Rv	-	12.5 µg/mL	-	-	inhibition	16%
CCCCC/C=C\C/C=C\CCCCCCCC(=O)N[C@H]1C[C@@H](O)[C@@H](O)NC(=O)[C@@H]2[C@@H](O)[C@@H](C)CN2C(=O)[C@H]([C@H](C)O)NC(=O)[C@H]([C@H](O)[C@@H](O)c2ccc(O)cc2)NC(=O)[C@@H]2C[C@@H](O)CN2C(=O)[C@H]([C@H](C)O)NC1=O	H37Rv	BACTEC	-	-	-	MIC bound	>12.5 µg/mL
CCOC(=O)c1c(NC(=O)c2c(F)c(F)c(F)c(F)c2F)sc2c1CCOC2	H37Rv	turbidity	-	-	rpoB S522L mutant	EC50	0.13 µM
C[C@@H]1CN(c2c(F)c(N)c3c(=O)c(C(=O)O)cn(C4CC4)c3c2F)C[C@H](C)N1	CSU23	-	-	-	-	MIC	≤0.125 µg/mL
CCc1cc(C(N)=S)ccn1	H37Rv	-	-	-	-	MBC	2.5 µg/mL
O=C(NNCc1ccccc1)c1ccncc1	H37Rv	-	-	-	-	MBC	3.13 µg/mL
Cc1onc(-c2ccccc2Cl)c1C(=O)N[C@@H]1C(=O)N2[C@@H]1SC(C)(C)[C@@H]2C(=O)O	H37Ra	-	-	-	-	Mean MIC	160 µg/mL
O=C(N/N=C/c1ccccc1F)c1ccncc1	H37Rv (isoniazid-resistant)	-	-	-	-	MIC	>32 µg/mL
CN(C)c1ccc(/C=C/C/C=N/NC(=O)c2ccc(N)cc2)cc1	H37Rv	-	-	-	-	MIC	>12.5 µg/mL
CO[C@H]1/C=C/O[C@@]2(C)Oc3c(C)c(O)c4c(O)c(c5c(c4c3C2=O)NC2(CCN(CC(C)C)CC2)N=5)=NC(=O)/C(C)=C\C=C\[C@H](C)[C@H](O)[C@@H](C)[C@@H](O)[C@@H](C)[C@H](OC(C)=O)[C@@H]1C	S-3M (susceptible)	-	-	-	-	MIC	0.05 µg/mL
O=C1N(Cc2ccccc2)C2CCS(=O)CCC2N1Cc1ccccc1	H37Rv	BACTEC	-	-	-	MIC bound	>12.5 µg/mL
C[C@H]1COc2c(N3CCN(C)CC3)c(F)cc3c(=O)c(C(=O)O)cn1c23	001-011 (drug-resistant)	-	-	-	-	MBC	1 µg/mL
CO[C@H]1/C=C/O[C@@]2(C)Oc3c(C)c(O)c4c(O)c(c5c(c4c3C2=O)NC2(CCN(CC(C)C)CC2)N=5)=NC(=O)/C(C)=C\C=C\[C@H](C)[C@H](O)[C@@H](C)[C@@H](O)[C@@H](C)[C@H](OC(C)=O)[C@@H]1C	H37Rv	-	-	-	-	Mean MIC	0.038 µg/mL
COC(=O)C(C(=O)C(=O)NC1=C(Cl)C(=O)c2ccccc2C1=O)c1csc(-n2nc(-c3ccccc3)cc2-c2ccccc2)n1	H37Rv	BACTEC	12.5 µg/mL	-	-	inhibition	21%
COc1cc2c3c(c1OC)-c1cc4c(cc1CC3N(C=O)CC2)OCO4	H37RvEr	resazurin	-	-	-	MIC	>50 µg/mL
CCN1CCc2c(sc(NC(=O)c3c(F)c(F)c(F)c(F)c3F)c2C#N)C1	H37Rv	turbidity	-	-	rpoB S522L mutant	EC50	7.2 µM
CCN(CC)Cc1cc(Nc2cc(C)nc3ccc(N(C)C)cc23)ccc1O.Cl.Cl.Cl	H37Rv	BACTEC	12.5 µg/mL	-	-	inhibition	18%
Cc1c(F)c(N2CCNC(C)C2)cc2c1c(=O)c(C(=O)O)cn2C1CC1	37 strains (drug-resistant)	-	-	-	-	MIC50	1 µg/mL
O=C(O)c1cn(C2CC2)c2c(F)c(N3CCSCC3)c(F)cc2c1=O	CSU11	-	-	-	-	MIC	2 µg/mL
CCOC(=O)c1c(NC(=O)c2c(F)c(F)c(F)c(F)c2F)sc2c1CCNC2=O	H37Rv	turbidity	-	-	gyrA mutant (D94N)	EC50	1.2 µM
COC(=O)C(=O)C(C(=O)C(=O)Nc1ccccc1C(=O)OC)c1nc2ccc(C(=O)c3ccccc3)cc2[nH]c1=O	H37Rv	BACTEC	12.5 µg/mL	-	-	inhibition	38%
NC1[C@H]2CN(c3nc4c(cc3F)c(=O)c(C(=O)O)cn4-c3ccc(F)cc3F)C[C@@H]12	82 strains	-	-	-	-	MIC90	>4 µg/mL
CO[C@@]12[C@H](COC(N)=O)C3=C(C(=O)C(C)=C(N4CCCC4)C3=O)N1C[C@@H]1N[C@@H]12	H37Rv	BACTEC	-	-	-	MIC	1.6 µg/mL
O=C(NNCc1cccc(C(F)(F)F)c1)c1ccncc1	Ethambutol-resistant	-	-	-	-	MIC	0.39 µg/mL
NC(N)=NCCC[C@H]1NC(=O)[C@@H](Cc2ccc(O)cc2)NC1=O	H37Rv	BACTEC	-	-	-	MIC bound	>12.5 µg/mL
Cc1c(F)c(N2CCNC(C)C2)cc2c1c(=O)c(C(=O)O)cn2C1CC1	250 isolates	-	-	-	-	MIC50	1 µg/mL
CC(=O)/C(N=Nc1ccc(C(=O)N/N=C/c2ccccc2F)cc1)=C(\C)O	H37Rv	-	12.5 µg/mL	-	-	inhibition	20%
NNC(=O)c1ccncc1	MDR-2037 (MDR)	-	-	-	-	MIC	3.2 µg/mL
COc1cccc2c1C(=O)c1c(O)c3c(c(O)c1C2=O)C[C@@](O)(/C(C)=N/NC(=O)CO)CC3OC1CC(N)C(O)C(C)O1.Cl	TAC-R	-	-	-	-	MIC	6.3 µg/mL
C[C@H]1COc2c(N3CCN(C)CC3)c(F)cc3c(=O)c(C(=O)O)cn1c23	22 strains (rifampin- isoniazid-resistant)	-	-	-	-	MIC50	3.13 µg/mL
O=c1oc2ccccc2c2c1C(c1ccccc1)C=C(c1ccccc1)O2	H37Rv	BACTEC	12.5 µg/mL	-	-	inhibition	0%
N[C@@H]1CN(c2c(F)cc3c(=O)c(C(=O)O)cn([C@@H]4C[C@@H]4F)c3c2Cl)CC12CC2	27 strains (levofloxacin-susceptible)	-	-	-	-	MIC50	0.1 µg/mL

For reference, 5 entries again:

smiles | strain | read by | tested at | cell line | mutations | measure | result
CCNC(=O)c1c(NC(=O)c2c(F)c(F)c(F)c(F)c2F)sc2c1CCN(CC)C2 | H37Rv | turbidity | - | - | gyrA mutant (D94N) | EC50 | 4.4 µM
CCOC(=O)c1c(NC(=O)c2c(F)c(F)c(F)c(F)c2F)sc2c1CCNC2=O | H37Rv | turbidity | - | - | gyrA mutant (D94N) | EC50 | 1.2 µM
NNC(=O)c1ccncc1 | H37Rv | - | - | - | - | Median MIC | 0.025 µg/mL
O=C1CSc2nc3ccc(Cl)cc3c(=O)n21 | H37Rv | BACTEC | 12.5 µg/mL | - | - | inhibition | -6%
O=c1c2ccccc2oc2c(Cl)cc(Cl)cc12 | H37Rv | BACTEC | 12.5 µg/mL | - | - | inhibition | 0%